Consider 18 substances from patent US20160304570A1, “Potent and selective inhibitors of nav1.3 and nav1.7” (published 2016).

Experiment in all cases: cell-based or functional assay
Experiment [1] has as its target human voltage-gated sodium channel Nav1.7 (human) (UniProt Q15858).
For experiment [2], the target named is human voltage-gated sodium channel Nav1.3 (human) (UniProt Q9NY46).
Experiment [3] deals with human voltage-gated sodium channel Nav1.5 (human) (UniProt Q14524).

Where only a bound is given, the exact number is not on record here.

[1-Nal10;Ala33]GpTx-1(1-34) (peptide): the IWQ Use Nav1.7 in experiment [1] was found to be 0.2 µM. In experiment [2], the IWQ Use Nav1.3 came out at 0.2 µM. The IWQ Use Nav1.5 in experiment [3] was found to be 39.5 µM.

Regarding [1-Nal10;Ala32]GpTx-1(1-34) (peptide), the IWQ Use Nav1.7 in experiment [1] amounted to 0.51 µM. In experiment [2], the IWQ Use Nav1.3 was determined as 0.44 µM. This substance also showed an IWQ Use Nav1.5 in experiment [3] of 35 µM.

Consider [1-Nal10;Glu31]GpTx-1(1-34) (peptide), for which, in experiment [1], the IWQ Use Nav1.7 is more than 5 µM. This substance also yielded an IWQ Use Nav1.3 in experiment [2] of more than 5 µM. Moreover, the IWQ Use Nav1.5 in experiment [3] came out at 26.8 µM.

Substance [1-Nal1;Glu8]GpTx-1(1-34) (peptide) had an IWQ Use Nav1.7 in experiment [1] of 1 µM. The substance further showed an IWQ Use Nav1.3 in experiment [2] of 0.9 µM. Also, the IWQ Use Nav1.5 in experiment [3] worked out at 32 µM.

For the substance [Ala5;Nle6;Glu12]GpTx-1(1-34) (peptide), in experiment [1], the IWQ Use Nav1.7 (µM) (IC50, IonWorks Quattro population patch clamp) was determined as 0.38 µM and the Nav1.7 Use IC50 (PatchXpress electrophysiology) worked out at 0.023 µM. In experiment [2], the IWQ Use Nav1.3 (µM) (IC50, IonWorks Quattro population patch clamp) worked out at 0.27 µM. In experiment [3], this substance yielded an IWQ Use Nav1.5 (µM) (IC50, IonWorks Quattro population patch clamp) of 47 µM and a Nav1.5 Use IC50 (PatchXpress electrophysiology) of more than 10 µM.

As to [2-Abu5;Nle6]GpTx-1(1-34) (peptide), in experiment [1], the IC50, IWQ Use Nav1.7 is 60 nM and the Nav1.7 Use IC50 (PatchXpress electrophysiology) is 0.001 µM. Further, the IC50, IWQ Use Nav1.3 in experiment [2] is 160 nM. For the same substance, in experiment [3], the IC50, IWQ Use Nav1.5 was 40200 nM and the Nav1.5 Use IC50 (PatchXpress electrophysiology) was more than 10 µM.

Regarding [PE1]GpTx-1(1-34) (peptide), in experiment [1], the IWQ Use Nav1.7 came to 0.17 µM. The same substance came in with an IWQ Use Nav1.3 in experiment [2] of 0.11 µM. The substance also had an IWQ Use Nav1.5 in experiment [3] of 10.7 µM.

On to [1-Nal10;Glu29]GpTx-1(1-34) (peptide), for which the IWQ Use Nav1.3 in experiment [2] was 10.8 µM. The IWQ Use Nav1.5 in experiment [3] turned out to be 18.9 µM.

In experiment [1], [Ala5;1-Nal33]GpTx-1(1-34) (peptide) showed an IWQ Use Nav1.7 (µM); IC50 of peak inward current, IonWorks Quattro of 0.38 µM and a Nav1.7 Use IC50 (PatchXpress electrophysiology) of 0.048 µM. In experiment [2], this substance yielded an IWQ Use Nav1.3 (µM); IC50 of peak inward current, IonWorks Quattro of 0.8 µM and a Nav1.3 Use IC50 (PatchXpress electrophysiology) of 0.201 µM. For the same substance, in experiment [3], the IWQ Use Nav1.5 (µM); IC50 of peak inward current, IonWorks Quattro came to 5 µM and the Nav1.5 Use IC50 (PatchXpress electrophysiology) was more than 10 µM.

In turn, [K(Me2)15]GpTx-1(1-34) (peptide) had an IWQ Use Nav1.7 (µM): IC50 of peak inward current, IonWorks Quattro in experiment [1] of 0.19 µM. This substance yielded an IWQ Use Nav1.3 (µM): IC50 of peak inward current, IonWorks Quattro in experiment [2] of 0.13 µM. The IWQ Use Nav1.5 (µM): IC50 of peak inward current, IonWorks Quattro in experiment [3] is 10.1 µM.

In experiment [1], [1-Nal10;Glu15]GpTx-1(1-34) (peptide) displayed an IWQ Use Nav1.7 of 0.93 µM. The substance further displayed an IWQ Use Nav1.3 in experiment [2] of 1.1 µM. In addition, in experiment [3], the IWQ Use Nav1.5 was 34.3 µM.

Take [1-Nal10;Glu33]GpTx-1(1-34) (peptide): in experiment [1], the IWQ Use Nav1.7 IC50 (IonWorks Quattro electrophysiology) amounted to 0.3 µM. Further, in experiment [2], the IWQ Use Nav1.3 IC50 (IonWorks Quattro electrophysiology) was determined as 0.53 µM. Further, the IWQ Use Nav1.5 IC50 (IonWorks Quattro electrophysiology) in experiment [3] was 28.3 µM.

Substance [2-Abu9,23]GpTx-1(1-34) (peptide) gave an IWQ Use Nav1.7 (µM); IC50 of peak inward current, IonWorks Quattro in experiment [1] of 8.14 µM. For the same substance, the IWQ Use Nav1.3 (µM); IC50 of peak inward current, IonWorks Quattro in experiment [2] came out at 12.3 µM. The IWQ Use Nav1.5 (µM); IC50 of peak inward current, IonWorks Quattro in experiment [3] was found to be 9.21 µM.

For [SDMA15]GpTx-1(1-34) (peptide), the IWQ Use Nav1.7 (µM): IC50 of peak inward current, IonWorks Quattro in experiment [1] was determined as 0.14 µM. For the same substance, the IWQ Use Nav1.3 (µM): IC50 of peak inward current, IonWorks Quattro in experiment [2] amounted to 0.15 µM. Besides, in experiment [3], the IWQ Use Nav1.5 (µM): IC50 of peak inward current, IonWorks Quattro came to 9.67 µM.

As for [1-Nal1;Glu6]GpTx-1(1-34) (peptide), the IWQ Use Nav1.7 in experiment [1] is more than 5 µM. The substance further registered an IWQ Use Nav1.3 in experiment [2] of more than 5 µM. Moreover, in experiment [3], the IWQ Use Nav1.5 came out at 26.3 µM.

In turn, “4-Pen-[Nva5;Leu6;2-Abu13]GpTx-1(1-34) (peptide)” showed an IWQ Use Nav1.7 IC50 (IonWorks Quattro electrophysiology) in experiment [1] of 0.19 µM. The substance further yielded an IWQ Use Nav1.3 IC50 (IonWorks Quattro electrophysiology) in experiment [2] of 0.25 µM. Moreover, the IWQ Use Nav1.5 IC50 (IonWorks Quattro electrophysiology) in experiment [3] came out at 35.2 µM.

The substance [1-Nal10;Ala31]GpTx-1(1-34) (peptide) registered an IWQ Use Nav1.7 in experiment [1] of more than 5 µM. In experiment [2], this substance registered an IWQ Use Nav1.3 of 3.2 µM. The same substance gave an IWQ Use Nav1.5 in experiment [3] of 36.5 µM.

Regarding [1-Nal10;Glu32]GpTx-1(1-34) (peptide), the IWQ Use Nav1.3 in experiment [2] is more than 5 µM. In addition, the IWQ Use Nav1.5 in experiment [3] is 28.6 µM.
